# Results as given in paper PMC9491098, “Discovery of novel drug-like antitubercular hits targeting the MEP pathway enzyme DXPS by strategic application of ligand-based virtual screening” (Chemical Science, 2022).
# By UniProt entry, the sequences of proteins in these tests, tags left out.
# UniProt P9WNS3, whole entry: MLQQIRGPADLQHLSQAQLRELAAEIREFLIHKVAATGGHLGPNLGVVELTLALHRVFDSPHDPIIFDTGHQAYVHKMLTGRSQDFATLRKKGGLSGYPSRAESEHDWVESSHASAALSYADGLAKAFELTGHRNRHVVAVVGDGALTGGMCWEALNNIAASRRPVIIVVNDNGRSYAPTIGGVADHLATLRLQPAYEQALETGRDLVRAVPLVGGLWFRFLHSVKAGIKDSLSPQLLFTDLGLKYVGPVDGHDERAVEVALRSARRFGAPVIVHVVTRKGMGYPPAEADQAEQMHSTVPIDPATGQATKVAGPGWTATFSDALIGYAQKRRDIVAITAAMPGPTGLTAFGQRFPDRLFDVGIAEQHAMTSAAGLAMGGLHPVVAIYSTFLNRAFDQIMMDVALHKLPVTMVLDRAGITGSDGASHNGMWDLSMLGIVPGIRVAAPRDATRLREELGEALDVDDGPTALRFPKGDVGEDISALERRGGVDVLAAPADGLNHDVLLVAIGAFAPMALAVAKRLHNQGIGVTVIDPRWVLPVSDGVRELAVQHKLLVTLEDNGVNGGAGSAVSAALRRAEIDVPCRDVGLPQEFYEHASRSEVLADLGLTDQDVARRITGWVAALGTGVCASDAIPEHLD
# Biological target: MtDXPS (Mycobacterium tuberculosis, UniProt P9WNS3)
# Experiment: coupled spectrophotometric enzyme activity assay against MtDXPS
# Assay type: biochemical
# Conditions: Table S1, first round of LBVS
row,SMILES,IC50
1,CC(=O)Nc1ncc(Cc2ccc(C)cc2)s1,> 30 µM
2,Sc1nnc(-c2csc3c2CCCC3)[nH]1,528 µM
3,NC(=O)c1nnn(Cc2ccccc2)c1N,> 240 µM
4,CN1C(=O)NC2(O)C(=O)c3ccccc3C12O (stereo not drawn),> 1000 µM

# Same assay, conditions: Table S2, second round of LBVS
row,SMILES,IC50
1,O=C(O)c1ccc(-n2cccc2/C=N/O)cc1,> 500 µM
2,Cc1ccccc1Cn1c(CCO)nc2ccccc21,> 500 µM
